Where “and” joins values, the source holds several entries; their conditions need not be identical. Equal values may be shown once.
Legend:
WIV1 spike protein RBD = WIV1 spike protein RBD (WIV1); experiment: BLI
[1] = biological target: PANG/GD spike protein RBD (PANG/GD); experiment: ELISA
BtKY72 spike protein RBD = BtKY72 spike protein RBD (BtKY72); experiment: ELISA

Binder | Kd (WIV1 spike protein RBD) [nM] | IC50 [1] | IC50 (BtKY72 spike protein RBD)
S2X259 variant antibody, VH SEQ ID NO 408 / VL SEQ ID NO 442 (antibody, V domains shown) VH: QVQLVQSGAEVKKPGSSVKVSCKASGGIFNTYTISWVRQAPGQGLEWMGRIILMSGMANYAQKIQGRVTITADKSTSTAYMELTSLRSDDTAVYYCARGFNGNYYGWGDDDAFDISGQGTLVTVYS VL: QTVLTQPPSVSGAPGQRVTISCTGSNSNIGAGYDVHWYQQLPGTAPKLLISGNSNRPSGVPDRFSGSKSGTSASLAITGLQAEDEADYYCQSYDSSLSGPNWVFGGGTKLTVL | 0.345 | – | –
S2X259 variant antibody, VH SEQ ID NO 408 / VL SEQ ID NO 443 (antibody, V domains shown) VH: QVQLVQSGAEVKKPGSSVKVSCKASGGIFNTYTISWVRQAPGQGLEWMGRIILMSGMANYAQKIQGRVTITADKSTSTAYMELTSLRSDDTAVYYCARGFNGNYYGWGDDDAFDISGQGTLVTVYS VL: QTVLTQPPSVSGAPGQRVTISCTGSNSNIGAGYDVHWYQQLPGTAPKLLIAGNSNRPSGVPDRFSGSKSGTSASLAITGLQAEDEADYYCQSYDSSLSGPNWVFGGGTKLTVL | 0.422 | – | –
S2X259 variant antibody, VH SEQ ID NO 408 / VL SEQ ID NO 444 (antibody, V domains shown) VH: QVQLVQSGAEVKKPGSSVKVSCKASGGIFNTYTISWVRQAPGQGLEWMGRIILMSGMANYAQKIQGRVTITADKSTSTAYMELTSLRSDDTAVYYCARGFNGNYYGWGDDDAFDISGQGTLVTVYS VL: QTVLTQPPSVSGAPGQRVTISCTGSNSNIGAGYDVHWYQQLPGTAPKLLIYGNSNRPSGVPDRFSGSKSGTSASLAITGLQAEDEADYYCQSYDSSLSGPNWVFGGGTKLTVL | 0.986 | – | –
S2X259 variant antibody, VH SEQ ID NO 408 / VL SEQ ID NO 445 (antibody, V domains shown) VH: QVQLVQSGAEVKKPGSSVKVSCKASGGIFNTYTISWVRQAPGQGLEWMGRIILMSGMANYAQKIQGRVTITADKSTSTAYMELTSLRSDDTAVYYCARGFNGNYYGWGDDDAFDISGQGTLVTVYS VL: QTVLTQPPSVSGAPGQRVTISCTGSNSNIGAGYDVHWYQQLPGTAPKLLIVGNSNRPSGVPDRFSGSKSGTSASLAITGLQAEDEADYYCQSYDSSLSGPNWVFGGGTKLTVL | 0.446 | – | –
S2X259 variant antibody, VH SEQ ID NO 446 / VL SEQ ID NO 412 (antibody, V domains shown) VH: QVQLVQSGAEVKKPGSSVKVSCKASGGIFNTYTISWVRQAPGQGLEWMGRIILISGIANYAQKIQGRVTITADKSTSTAYMELTSLRSDDTAVYYCARGFNGNYYGWGDDDAFDISGQGTLVTVYS VL: QTVLTQPPSVSGAPGQRVTISCTGSNSNIGAGYDVHWYQQLPGTAPKLLICGNSNRPSGVPDRFSGSKSGTSASLAITGLQAEDEADYYCQSYDSSLSGPNWVFGGGTKLTVL | 3.06 | – | –
S2X259 variant antibody, VH SEQ ID NO 458 / VL SEQ ID NO 445 (antibody, V domains shown) VH: QVQLVQSGAEVKKPGSSVKVSCKASGGIFNTYTISWVRQAPGQGLEWMGRIILMSGMANYAQKIQGRVTITADKSTSTAYMELTSLRSDDTAVYYCARGFNGNYYGWGDDDAFDIWGQGTLVTVSS VL: QTVLTQPPSVSGAPGQRVTISCTGSNSNIGAGYDVHWYQQLPGTAPKLLIVGNSNRPSGVPDRFSGSKSGTSASLAITGLQAEDEADYYCQSYDSSLSGPNWVFGGGTKLTVL | – | ≥ 0.05 mg/L and ≤ 0.1 mg/L | –
S2X259 variant antibody, VH SEQ ID NO 459 / VL SEQ ID NO 445 (antibody, V domains shown) VH: QVQLVQSGAEVKKPGSSVKVSCKASGGIFNTYTISWVRQAPGQGLEWMGRIILMSGKANYAQKIQGRVTITADKSTSTAYMELTSLRSDDTAVYYCARGFNGNYYGWGDDDAFDIWGQGTLVTVSS VL: QTVLTQPPSVSGAPGQRVTISCTGSNSNIGAGYDVHWYQQLPGTAPKLLIVGNSNRPSGVPDRFSGSKSGTSASLAITGLQAEDEADYYCQSYDSSLSGPNWVFGGGTKLTVL | – | ≥ 0.05 mg/L and ≤ 0.1 mg/L | ≥ 0.05 mg/L and ≤ 0.1 mg/L
